Single amino acid changes in Zika NS2B-NS3 and viral growth

Protein: NS2B and the protease part of NS3 of Zika virus strain MR766. Positions count along the chain below; NS2B spans 2-131 and NS3 starts at 132.
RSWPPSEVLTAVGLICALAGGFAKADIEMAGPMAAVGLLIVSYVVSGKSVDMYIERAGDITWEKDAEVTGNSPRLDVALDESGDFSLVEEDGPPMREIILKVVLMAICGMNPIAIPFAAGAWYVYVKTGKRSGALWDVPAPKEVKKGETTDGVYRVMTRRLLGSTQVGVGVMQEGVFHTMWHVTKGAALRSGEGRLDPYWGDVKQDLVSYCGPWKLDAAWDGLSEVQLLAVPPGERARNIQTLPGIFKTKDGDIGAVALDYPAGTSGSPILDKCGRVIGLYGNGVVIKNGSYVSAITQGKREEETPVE

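Pools of virus carrying all single amino acid changes were selected for growth in Huh-7.5 cells. Sequencing of three replicate libraries (two for positions 207-308) was averaged into one effect per change. The study looked for pockets that tolerate few changes, as a guide for inhibitor design.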

Scale: log2 effect, wild type = 0; the lower, the more harmful to the virus.
Each entry names the wild-type residue, its position and the residue put in its place.
Position 1 still belongs to NS2A. In the paper, -1 or higher counts as tolerated.

| # | change | effect (log2) |
|---|---|---|
| 1 | V285F | -5.64 |
| 2 | D221A | -6.44 |
| 3 | H178S | -6.50 |
| 4 | T265E | -3.20 |
| 5 | L9T | 0.04 |
| 6 | G245I | -5.24 |
| 7 | D65G | -1.88 |
| 8 | C211T | -2.64 |
| 9 | K130P | -7.12 |
| 10 | P73Y | 0.17 |
| 11 | V124M | -0.98 |
| 12 | G109E | -4.59 |
| 13 | T150S | -0.93 |
| 14 | K101W | -6.25 |
| 15 | G255D | -6.58 |
| 16 | S294I | -6.15 |
| 17 | T179R | -7.17 |
| 18 | A34T | -2.48 |
| 19 | G92C | -3.07 |
| 20 | W200C | -6.43 |
| 21 | A218D | -5.93 |
| 22 | V126I | -1.09 |
| 23 | V277* | -6.57 |
| 24 | Y43E | -5.59 |
| 25 | P262N | -4.55 |
| 26 | D202C | -0.70 |
| 27 | E148N | -1.95 |
| 28 | A258I | -5.32 |
| 29 | E303W | -0.84 |
| 30 | G267H | -5.66 |
| 31 | T297A | -4.04 |
| 32 | M29* | -7.79 |
| 33 | A134M | -5.00 |
| 34 | G70T | -6.78 |
| 35 | R131F | -5.23 |
| 36 | I287Y | 0.24 |
| 37 | Y154D | -4.45 |
| 38 | L259S | -6.77 |
| 39 | I270M | -4.75 |
| 40 | P213R | -2.20 |
| 41 | D197G | -3.23 |
| 42 | V176S | -5.76 |
| 43 | V208T | -4.06 |
| 44 | N239L | -7.06 |
| 45 | G58I | -5.46 |
| 46 | T128H | -2.36 |
| 47 | R238Y | -2.84 |
| 48 | Y43N | -6.40 |
| 49 | D91L | -4.27 |
| 50 | P32S | -6.49 |
| 51 | L104Y | -6.12 |
| 52 | E89* | -6.09 |
| 53 | P94* | -6.07 |
| 54 | D51L | -6.84 |
| 55 | I240Y | -6.87 |
| 56 | A11P | -5.92 |
| 57 | V277R | -5.79 |
| 58 | L280E | -4.95 |
| 59 | E28W | -5.46 |
| 60 | P93C | -3.30 |
| 61 | D202M | -5.33 |
| 62 | K24P | -6.47 |
| 63 | C16* | -8.03 |
| 64 | D217A | -4.53 |
| 65 | V257T | -5.56 |
| 66 | V153K | -5.59 |
| 67 | V231M | -3.20 |
| 68 | S224T | -1.04 |
| 69 | L161F | -4.92 |
| 70 | E235K | -1.31 |
| 71 | G255I | -6.64 |
| 72 | E225F | -5.86 |
| 73 | S291F | -5.20 |
| 74 | G83F | -5.93 |
| 75 | L38A | -6.65 |
| 76 | D80K | -5.71 |
| 77 | A106R | -6.85 |
| 78 | L207Y | -7.02 |
| 79 | F177A | -6.14 |
| 80 | M52F | -1.02 |
| 81 | S224Y | -5.74 |
| 82 | E148I | -1.36 |
| 83 | E28P | -3.18 |
| 84 | Y154P | -6.79 |
| 85 | R159L | -4.39 |
| 86 | E67I | -1.60 |
| 87 | E81P | -7.47 |
| 88 | G222K | -1.62 |
| 89 | T61Y | -0.33 |
| 90 | H182K | -4.55 |
| 91 | V183C | -5.36 |
| 92 | A114* | -6.78 |
| 93 | W181V | -5.71 |
| 94 | M29Y | -0.48 |
| 95 | D202Q | -5.31 |
| 96 | A256Q | -6.44 |
| 97 | A66G | -7.56 |
| 98 | E225C | -3.38 |
| 99 | L14S | -6.62 |
| 100 | V103F | -0.10 |
| 101 | G234I | -5.03 |
| 102 | G133Q | -5.49 |
| 103 | M52V | -4.75 |
| 104 | P198S | -8.14 |
| 105 | A140L | -6.62 |
| 106 | I278S | -5.89 |
| 107 | G31* | -4.77 |
| 108 | L100Q | -5.64 |
| 109 | T69R | -7.45 |
| 110 | R96* | -6.90 |
| 111 | D206P | -7.75 |
| 112 | I27H | -2.99 |
| 113 | G222N | -1.13 |
| 114 | E90A | 0.18 |

The last 11 entries again:

change	effect (log2)
P198S	-8.14
A140L	-6.62
I278S	-5.89
G31*	-4.77
L100Q	-5.64
T69R	-7.45
R96*	-6.90
D206P	-7.75
I27H	-2.99
G222N	-1.13
E90A	0.18

Values above 0 are not proof of better growth: six high scorers were tested one by one, five grew less well than wild type and one about as well.
An asterisk is a stop codon; stop codons read about -7, near the floor of the assay.
Positions 1-103, 104-206 and 207-308 were made and measured as separate libraries.

From the data files of Ni et al. 2025, doi:10.1038/s41467-025-63602-z.